Results of unrelated studies side by side (data: NIAID ChemDB).

All rows: tests in culture; organism: Mycobacterium tuberculosis

A number after MIC or MFC names an inhibition level or a share of isolates.

smiles | read by | measure | tested at | mutations | conditions | strain | result
CC1=C(C(=O)Nc2ccc([N+](=O)[O-])cc2)C(c2ccc(N(C)C)cc2)C(C(=O)Nc2ccc([N+](=O)[O-])cc2)=C(C)N1 | - | inhibition | 2.5 µg/mL | - | - | H37Rv | 97%
CC(=O)O[C@H]1C[C@@]2(C)[C@@H](C[C@@H](O)[C@H]3[C@@]4(C)CC[C@@H](O)[C@@H](C)[C@@H]4CC[C@@]32C)/C1=C(\CCC=C(C)C)C(=O)O | - | Median MIC | - | - | - | H37Rv | 12 µg/mL
C/C(=N\NS(=O)(=O)c1ccc(C)cc1)C(CN(C)C)C(c1ccccc1)c1c(O)c2ccccc2oc1=O.Cl | BACTEC | MIC bound | - | - | - | H37Rv | >12.5 µg/mL
CCC1CN(c2c(F)cc3c(=O)c(C(=O)O)cn(C4CC4)c3c2OC)CCN1 | - | MIC | - | - | - | TN1625 (A90V) | 0.7 µg/mL
CC1=C(C(=O)Nc2ccccc2Cl)C(c2ccc(Cl)cc2)C(C(=O)Nc2ccccc2Cl)=C(C)N1 | - | inhibition | 2.5 µg/mL | - | - | H37Rv | 17%
CC(O)C1C(=O)N2C(C(=O)O)C=C(SC3CN(C4=NCCC4)C3)C12 | - | MIC | - | - | - | H37Rv | 0.5–1 µg/mL
CCN(CC)CCOc1ccc(NC(=S)Nc2ccc(OCC(C)C)cc2)cc1 | - | MIC | - | - | - | H37RV #225 | 62.5 µg/mL
COC(=O)C(Cc1ccccc1)NC(=O)C1N2C(=O)C(N)C2SC1(C)C | colony count | EC99 | - | - | 21 d | Gordon | 100 µg/mL
Cc1nc([N+](=O)[O-])c(Br)n1C | resazurin | inhibition | 6.25 µg/mL | - | - | H37Rv | 13%
O=c1oc2ccc(Br)cc2cc1-c1cs/c(=N/N=C/c2ccc(F)cc2)n1C1CCCCC1 | - | inhibition | 6.25 µg/mL | - | - | H37Rv | 11%
CCCCCS(=O)(=O)Nc1ccc2[nH]c(Br)c(C)c2c1 | resazurin | MIC90 | - | - | - | H37Rv | 0.2 µM
CC1(C)S[C@@H]2[C@H](NC(=O)C(C(=O)O)c3ccccc3)C(=O)N2[C@H]1C(=O)O | colony count | inhibition | 10 µg/mL | - | 21 d | Gordon | 77%
CCCCCS(=O)(=O)Nc1ccc2[nH]c(C(=O)O)c(C)c2c1 | resazurin | MIC90 | - | - | - | H37Rv | 12.5 µM
O=C(Nc1ccc(O)c2c1C(=O)c1ccccc1C2=O)Oc1ccccc1 | BACTEC | MIC bound | - | - | - | H37Rv | >12.5 µg/mL
Cc1cc(C)cc(N=Nc2c(O)c3c(ccc4ccccc43)oc2=O)c1 | resazurin | MIC | - | - | - | H37Rv | <6.25 µg/mL
C[C@H]1CC[C@@H]2N(C1)C[C@@H]1[C@](O)([C@@H](O)C[C@@]3(O)[C@@H]4CC[C@@H]5[C@]6(O)O[C@@]4(C[C@@]13O)[C@@]5(C)CC[C@@H]6O)[C@]2(C)O | BACTEC | MIC bound | - | - | - | H37Rv | >12.5 µg/mL
CC1COc2c(N3CCN(C)CC3)c(F)cc3c(=O)c(C(=O)O)cn1c23 | BACTEC | MIC | - | - | - | SMI 17 | 0.5 µg/mL
CC1(C)N=C(N)N=C(N)N1c1ccc(CNC(=O)Nc2ccc(S(=O)(=O)F)c(Cl)c2)c(Cl)c1 | BACTEC | MIC bound | - | - | - | H37Rv | >12.5 µg/mL
O=c1oc2c(Cl)cc(Cl)cc2c(=O)n1-c1ccccc1 | - | MIC | - | - | - | CNCTC MY331/88 | 63.1 µM
COc1ccc(C2C(C(=O)Nc3cc(C)ccc3C)=C(C)NC(C)=C2C(=O)Nc2cc(C)ccc2C)cc1 | - | inhibition | 2.5 µg/mL | - | - | H37Rv | 41%
O=[N+]([O-])c1cccc(CSc2nnc(-c3ccc([N+](=O)[O-])o3)s2)c1 | - | inhibition | 6.25 µg/mL | - | - | H37Rv | 98%
COc1ccccc1/C=N/N=c1\scc(-c2cc3cc(Br)ccc3oc2=O)n1C1CCCCC1 | - | EC50 | - | - | - | H37Rv | >6.25 µg/mL
ClCC1CSC(c2ccc3c(c2)OCO3)O1 | BACTEC | inhibition | 12.5 µg/mL | - | - | H37Rv | -32%
O=c1[nH]c2c([N+](=O)[O-])cccc2c(O)c1N=Nc1ccccc1[N+](=O)[O-] | resazurin | inhibition | 6.25 µg/mL | - | - | H37Rv | 80%
NNC(=O)c1ccncc1 | - | MIC | - | - | - | H37Ra | 3.12 µg/mL
Cc1ccc(/C=N/NC(N)=S)nn1 | BACTEC | MIC bound | - | - | - | H37Rv | >12.5 µg/mL
CO[C@H]1/C=C/O[C@@]2(C)Oc3c(C)c(O)c4c(O)c(c5c(c4c3C2=O)NC2(CCN(CC(C)C)CC2)N=5)=NC(=O)/C(C)=C\C=C\[C@H](C)[C@H](O)[C@@H](C)[C@@H](O)[C@@H](C)[C@H](OC(C)=O)[C@@H]1C | - | Median MIC | - | - | - | H37Ra | ≤0.003 µg/mL
Cn1c([N+](=O)[O-])cnc1-c1nnc(SCc2ccccc2[N+](=O)[O-])s1 | - | MIC | - | - | - | H37Rv | >6.25 µg/mL
Cc1ccc(/C=N/N=c2/scc(-c3cc4ccccc4oc3=O)n2C2CCCCC2)cc1 | - | MIC | - | - | - | H37Rv | >6.25 µg/mL
CCCCS(=O)(=O)Nc1ccc2[nH]c(Br)c(C)c2c1 | resazurin | MIC90 | - | - | - | H37Rv | 0.78 µM
O=c1oc2ccc3ccccc3c2c(O)c1N=Nc1ccccc1 | resazurin | MIC | - | - | - | H37Rv | <6.25 µg/mL
O=NNc1cncc(NN=O)n1 | BACTEC | MIC bound | - | - | - | H37Rv | >12.5 µg/mL
CSc1ccc(C2C(C(=O)Nc3ccc(C)cc3C)=C(C)NC(C)=C2C(=O)Nc2ccc(C)cc2C)cc1 | - | EC50 | - | - | - | H37Rv | <2.5 µg/mL
COc1cc2c3cc1Oc1c(O)c(OC)cc4c1C(Cc1ccc(cc1)Oc1cc(ccc1O)CC3N(C)CC2)N(C)CC4 | BACTEC | MIC | - | - | - | H37Rv | ≥12.8 µg/mL
O=c1oc2ccccc2cc1-c1cs/c(=N/N=C/c2ccc(F)cc2)n1C1CCCCC1 | - | EC50 | - | - | - | H37Rv | >6.25 µg/mL
NNC(=O)c1ccncc1 | - | MIC | - | - | - | H37RV #80 | <0.5 µg/mL
CC1=C(Nc2ccccc2)C(=O)N(c2ccccc2)C1c1ccccc1 | BACTEC | MIC | - | - | - | H37Rv | ≥12.5 µg/mL
NNC(=O)c1ccncc1 | - | MIC | - | - | - | H37Rv | 0.031–0.063 µg/mL
CNC(=S)N(Cc1cc2ccccc2nc1Cl)c1ccc(OC)cc1 | - | MIC | - | - | - | H37Ra | 400 µg/mL
O=c1oc2c(Cl)cc(Cl)cc2c(=O)n1-c1ccc(Cl)cc1 | - | MIC | - | - | - | CNCTC MY331/88 | 15.8 µM
Nc1ccc(-c2nnc(Nc3ccc(Cl)cc3)s2)cc1 | BACTEC | inhibition | 6.25 µg/mL | - | - | H37Rv | 16%
O=C(O)c1cc(=O)n(CCCCCCn2c(=O)cc(C(=O)O)[nH]c2=O)c(=O)[nH]1 | resazurin | inhibition | 6.25 µg/mL | - | - | H37Rv | -9%
O=c1oc2c(Br)cc(Br)cc2c(=O)n1-c1ccc(Br)cc1 | - | MIC | - | - | - | CNCTC MY331/88 | 31.6 µM
NC[C@@H]1O[C@H](O[C@H]2[C@@H](O)[C@H](O[C@@H]3[C@@H](O)[C@H](N)C[C@H](N)[C@H]3O[C@H]3O[C@H](CO)[C@@H](O)[C@H](O)[C@H]3N)O[C@@H]2CO)[C@H](N)[C@@H](O)[C@@H]1O | - | Median MIC | - | - | - | H37Rv | 2 µg/mL
O=c1oc2c(Br)cc(Br)cc2c(=O)n1-c1ccc(Cl)cc1 | - | MIC | - | - | - | CNCTC MY331/88 | >15.8 µM
Nc1ccc(-c2nnc(Nc3ccc([N+](=O)[O-])cc3)s2)cc1 | BACTEC | inhibition | 6.25 µg/mL | - | - | H37Rv | 37%
CCC1CN(c2cc3c(cc2F)c(=O)c(C(=O)O)cn3C2CC2)CCN1 | - | MIC | - | - | - | TN3033 (D94N) | 5 µg/mL
CNC(=S)N(Cc1cc2ccccc2nc1Cl)c1ccc(Cl)cc1 | - | MIC | - | - | - | H37Ra | 100 µg/mL
CCc1cc(C(N)=S)ccn1 | - | Mean MIC | - | - | - | H37Ra | 1.09 µg/mL
CCCCS(=O)(=O)Nc1ccc2[nH]c(C(=O)N3CCCC3)c(C)c2c1 | resazurin | MIC90 | - | - | - | H37Rv | 1.56 µM
C[C@@H]1CN(c2c(F)c(N)c3c(=O)c(C(=O)O)cn(C4CC4)c3c2F)C[C@H](C)N1 | - | MIC | - | - | - | 5 strains (ofloxacin-susceptible) | 0.16–0.32 µg/mL
O=[N+]([O-])c1ccc(NCc2cc3ccccc3nc2Cl)cc1 | - | MIC | - | - | - | H37Ra | >400 µg/mL
CO[C@H]1/C=C/O[C@@]2(C)Oc3c(C)c(O)c4c(O)c(c5c(c4c3C2=O)NC2(CCN(CC(C)C)CC2)N=5)=NC(=O)/C(C)=C\C=C\[C@H](C)[C@H](O)[C@@H](C)[C@@H](O)[C@@H](C)[C@H](OC(C)=O)[C@@H]1C | - | MIC | - | - | - | 6 (rifampicin-resistant) | 1 µg/mL
CCc1cc(C(N)=S)ccn1 | - | MIC | - | - | - | H37Ra | 3.12 µg/mL
NC(=O)C1CCC2CN1C(=O)N2OS(=O)(=O)O | - | MIC | - | - | - | H37Rv | 512 µg/mL
CCNc1nnc(-c2ccc(N=N/C(C(C)=O)=C(/C)O)cc2)s1 | BACTEC | inhibition | 6.25 µg/mL | - | - | H37Rv | 39%
CC(=O)c1c(C)[nH]c(C(=O)N/N=C/c2cccc(Cl)c2)c1C | resazurin | MIC | - | - | - | H37Rv | <6.25 µg/mL
Cc1cc(C)n(-c2ccc3nnnn3n2)n1 | BACTEC | MIC bound | - | - | - | H37Rv | >12.5 µg/mL
Fc1ccc(NCc2cc3ccccc3nc2Cl)cc1 | - | MIC | - | - | - | H37Ra | >400 µg/mL
NC(=O)C(Cc1ccc(O)cc1)NC(=O)c1cccnc1 | BACTEC | MIC bound | - | - | - | H37Rv | >12.5 µg/mL
CCCCOc1ccc(NC(=S)Nc2ccc(N(C)C)cc2)cc1 | - | MIC | - | - | - | Ravenel #226 | 2 µg/mL
CC(=O)/C(N=Nc1ccc(-c2nnc(Nc3ccccc3C)s2)cc1)=C(\C)O | BACTEC | inhibition | 6.25 µg/mL | - | - | H37Rv | 5%
C=CCSc1nnc(-c2ccc([N+](=O)[O-])o2)s1 | - | MIC | - | - | - | H37Rv | >6.25 µg/mL
S=C(Nc1ccccc1)Nc1ccc(-c2nnc(NCc3ccccc3)s2)cc1 | BACTEC | inhibition | 6.25 µg/mL | - | - | H37Rv | 16%
COc1ccc(-n2c(=O)oc3c(Br)cc(Br)cc3c2=O)cc1 | - | MIC | - | - | - | CNCTC MY331/88 | 63.1 µM
CC(=O)c1c(C)[nH]c(C(=O)N/N=C/c2cccc([N+](=O)[O-])c2)c1C | resazurin | inhibition | 6.25 µg/mL | - | - | H37Rv | 18%
NC[C@H]1OB2OCCOC3C=CC(c4ccccc4)=C1C23 | resazurin / fluorescence | EC50 | - | - | - | H37Rv | 8.75 µM
CC(=O)c1c(C)[nH]c(C(=O)N/N=C/c2ccc(N(C)C)cc2)c1C | resazurin | inhibition | 6.25 µg/mL | - | - | H37Rv | 18%
CCCSc1nnc(-c2ncc([N+](=O)[O-])n2C)s1 | - | MIC | - | - | - | H37Rv | 3.13 µg/mL
Clc1nc2ccccc2cc1CNc1ccccc1 | - | MIC | - | - | - | H37Ra | >400 µg/mL
O=c1cc(-c2ccccc2)ss1 | BACTEC | inhibition | 12.5 µg/mL | - | - | H37Rv | 22%
CN(C)c1ccc(-n2c(=O)oc3c(Cl)cc(Cl)cc3c2=O)cc1 | - | MIC | - | - | - | CNCTC MY331/88 | >63.1 µM
COc1cc(C)c2c(=O)c3c(oc2c1)C(=O)c1c(O)c(OC)cc(O)c1C3=O | BACTEC | MIC bound | - | - | - | H37Rv | ≤12.5 µg/mL
C[C@@H]1CN(c2c(F)c(N)c3c(=O)c(C(=O)O)cn(C4CC4)c3c2F)C[C@H](C)N1 | - | EC50 | - | - | - | TN1625 (A90V) | 0.34 µg/mL
CC(C)(C)C1=CC(=O)C(C#N)=C(C#N)C1=O | BACTEC | MIC bound | - | - | - | H37Rv | ≤128 µg/mL
CCCCS(=O)(=O)Nc1ccc2[nH]c(C(=O)NC)c(C)c2c1 | resazurin | MIC90 | - | - | - | H37Rv | 3.1 µM
C[C@]12CCC3C[C@]1(C[C@@]3(C)O)[C@H](O)C[C@@H]1[C@@]3(C)CCC[C@]12OC3=O | BACTEC | MIC bound | - | - | - | H37Rv | >12.5 µg/mL
C=CCSc1nnc(-c2ncc([N+](=O)[O-])n2C)s1 | - | MIC | - | - | - | H37Rv | >6.25 µg/mL
COc1ccc2nc(N/N=C/c3cccc(C)n3)cc(C)c2c1 | BACTEC | MIC bound | - | - | - | H37Rv | >12.5 µg/mL
CCc1nc2ccc(Cl)cn2c1C(=O)NCc1ccc(N2CCC(c3ccc(OC(F)(F)F)cc3)CC2)cc1 | resazurin | MIC50 | - | cydABcomp | - | H37Rv | 0.0014 µM
N=c1ccc(=Nc2ccc(N)c3c(O)c4ccccc4c(O)c23)c2c(=O)c3ccccc3c(=O)c1=2 | BACTEC | MIC bound | - | - | - | H37Rv | >12.5 µg/mL
Cn1c([N+](=O)[O-])cnc1-c1nnc(SCc2cccc([N+](=O)[O-])c2)s1 | - | MIC | - | - | - | H37Rv | >6.25 µg/mL
CCN(CC)c1ccc(N=C2C=CC(=O)C(NC(C)=O)=C2)c(C)c1 | BACTEC | inhibition | 12.5 µg/mL | - | - | H37Rv | 97%
O=c1[nH]c2ccc(Cl)cc2c(O)c1N=Nc1ccc(Cl)cc1 | resazurin | MIC | - | - | - | H37Rv | <6.25 µg/mL

Percent inhibition refers to the dose given; in toxicity tests it is the harm to the cells. ECn: concentration that inhibits the pathogen or its effect by n%. Neighbouring rows are from separate reports. a–b is a range or a potency band. An empty or dashed field is not shown. MIC bound: limit read from a one-dose screen.